Data source: PubChem BioAssay AID1259414 (Drosophila RNAi Screening Center, 2018)

Assay: 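Fly genes that alter Wolbachia amount inside host cells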 (primary screen)
System: Drosophila JW18 cells infected with Wolbachia
Reagents: long dsRNA against Drosophila genes, 0.25 µg dsRNA per well of a 384-well plate
Time to read-out: 5 days
Treatment: cells persistently infected with Wolbachia before knock-down; no added drug
Measurement: 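Imaged fluorescence in situ signal for Wolbachia 23S rRNA per DAPI-counted host cell, given as a robust z-score within each plate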
Direction: Wolbachia per cell robust z: higher = more Wolbachia per host cell than the plate typical
Rule for the call: 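Hit when robust z is 1.5 or more, or -1.5 or less, in at least two of three replicates; excludes dsRNAs with several or no targets, genes not expressed in JW18 and well A1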
The screen tested about 24,000 reagents; this is an unselected part of those that have a named target and a result. Of all reagents, about 1,210 (5%) were called active. 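Inactive calls also include excluded dsRNAs with several or no targets, genes unexpressed in JW18, and well A1, regardless of score.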 Entries without a mark were called inactive. The numbers tell different reagents against one gene apart.

Gene	reagent	Wolbachia per cell robust z, rep 1	Wolbachia per cell robust z, rep 2	Wolbachia per cell robust z, rep 3
Cyp6w1	1	-4.89	0.911	-5.26
CG32681	1	-1.02	-0.68	-0.443
hbs	1	-1.38	0.122	0.323
levy	1	1.05	0.352	-0.255
Dgat2	1	-5.97	-4.8	-3.11
CG1314	1	1.63	0.992	-1.1
CR12842	1	0.596	0.221	-2.09
CR12842	2	0.476	1.23	-9.67
Ran	1	-0.271	0.144	1.24
Ran	2	0.916	1.47	0.39
CG32022	1	0.643	0.632	0.859
CG12054	1	0.925	1.36	0.373
18SrRNA-Psi:CR41602	1	0.55	0.533	0.379
Polr3G	1	0.0883	0.675	0.895
Adar	1	-0.253	0.263	0.26
CG31883	1	0.614	0.407	0.901
wge	1	-0.213	1.04	-0.263
wge	2	-0.218	0.0149	-1.31
sima	1	0.412	-1.31	-0.678
sima	2	0.0806	0.619	-0.952
sima	3	-0.131	0.907	-0.919
sima	4	0.647	0.891	-0.248
Antdh	1	0.277	0.444	1.24
Antdh	2	0.186	-1.02	0.542
ND-49L	1	-0.645	0.483	1.38
ND-49L	2	-0.894	0.377	-0.097
Nelf-A	1	-1.12	-0.0637	0.752
Dfd	1	-0.00261	-0.562	-0.767
Dfd	2	0.35	-0.659	-0.616

No new results follow: 2 of the entries above.
Gene	reagent	Wolbachia per cell robust z, rep 1	Wolbachia per cell robust z, rep 2	Wolbachia per cell robust z, rep 3
Adar	1	-0.253	0.263	0.26
CG31883	1	0.614	0.407	0.901
